System: CCCCCCCCCCCCC/C=C/[C@@H](O)[C@@H](N)COP(=O)(O)O
Test: purified protein
Conditions: pH 7.5

## S1PL2021 (Burkholderia pseudomallei K96243)
  Km: 48.2 ± 9.4 µM
  Vmax: 0.0175 µmol/min/mg
  kcat/Km: 320 M⁻¹ s⁻¹
